A mixed list of measured activities; the numbers were collected in NIAID ChemDB.

All rows: whole-cell or culture tests

Percent inhibition refers to the dose given; in toxicity tests it is the harm to the cells.

{"compound": "Nc1nc2c(ncn2COCCO)c(=O)[nH]1", "measure": "inhibition", "species": "Varicella zoster virus", "strain": "Kawaguchi", "cell line": "HELF", "read by": "plaque count", "dose": "0.1 µg/mL", "result": "4%"}
{"compound": "Oc1ccccc1N=Cc1cccc(O)c1O", "measure": "MIC", "species": "Cryptococcus neoformans", "strain": "ATCC 24067", "read by": "broth dilution", "result": "4 µg/mL"}
{"compound": "Cc1cc(CCCOc2c(C)cc(-c3noc(C(F)(F)F)n3)cc2C)on1", "measure": "EC50", "species": "Rhinovirus", "strain": "Isolate 10", "cell line": "OHIO HELA-I", "read by": "cytopathic effect / visual reading", "result": "2.15 µg/mL"}
{"compound": "O=S(=O)([O-])c1ccc(NS(=O)(=O)c2ccccc2)c2c(S(=O)(=O)[O-])cccc12", "measure": "inhibition", "species": "Herpes simplex virus", "cell line": "Human conjunctiva cells", "read by": "cytopathic effect", "dose": "5 µg/mL", "result": "0%"}
{"compound": "CCOC(=O)c1c(C)nc(NCCCCNc2ccnc3cc(Cl)ccc23)nc1-c1ccc(F)cc1", "measure": "MIC99", "species": "Cryptococcus gattii", "strain": "ATCC 32608", "result": "16 µg/mL"}
{"compound": "Nc1c(S(=O)(=O)O)cc2cc(S(=O)(=O)O)cc(O)c2c1O", "measure": "inhibition", "species": "Adenovirus", "strain": "TYPE 3", "cell line": "Human embryonic lung cells", "read by": "cytopathic effect", "dose": "5 µg/mL", "result": "65%"}
{"compound": "C=CCc1ccc(O)c(OC)c1", "measure": "MIC90", "species": "Candida tropicalis", "strain": "2857", "read by": "turbidity", "result": "500 µg/mL"}
{"compound": "Cc1cn([C@@H]2O[C@H](CO)[C@@H](O)[C@@H]2O)c(=O)[nH]c1=O", "measure": "inhibition", "species": "Varicella zoster virus", "strain": "KANNO", "cell line": "HELF", "read by": "plaque count", "dose": "1 µg/mL", "result": "100%"}
{"compound": "CCOC(=O)c1c(C)nc(NCCCNc2ccnc3cc(Cl)ccc23)nc1-c1ccccc1", "measure": "MIC99", "species": "Cryptococcus gattii", "strain": "23/10993", "result": "5.7 µg/mL"}
{"compound": "O=C(Nc1cc(S(=O)(=O)O)cc2cc(S(=O)(=O)O)cc(O)c12)c1ccccc1", "measure": "inhibition", "species": "Adenovirus", "strain": "TYPE 3", "cell line": "Human amnion AV3 cells", "read by": "cytopathic effect", "dose": "10 µg/mL", "result": "0%"}
{"compound": "CCOC(=O)c1ccc(OCCC2CCN(c3ccc(C)nn3)CC2)cc1", "measure": "EC50", "species": "Rhinovirus", "strain": "5146 (ICAM-1 receptor group 24)", "cell line": "KB", "read by": "neutral red", "result": "0.006 µM"}
{"compound": "Nc1nc(=O)n([C@@H]2O[C@H](CO)[C@@H](O)[C@@H]2F)cc1I", "measure": "inhibition", "species": "Varicella zoster virus", "strain": "YS", "cell line": "HELF", "read by": "plaque count", "dose": "0.01 µg/mL", "result": "10%"}
{"compound": "CCC(CC)O[C@@H]1C=C(C(=O)O)C[C@H](N)[C@H]1NC(C)=O", "measure": "EC50", "species": "Influenza A virus", "strain": "Influenza A/Victoria/3/75 (H3N2)", "cell line": "MDCK", "read by": "visual reading", "result": "0.06 µM"}
{"compound": "O=S(=O)([O-])c1ccccc1S(=O)(=O)[O-]", "measure": "inhibition", "species": "Herpes simplex virus", "cell line": "Human amnion AV3 cells", "read by": "cytopathic effect", "dose": "50 µg/mL", "result": "0%"}
{"compound": "O=c1[nH]c(=O)n([C@@H]2O[C@H](CO)[C@@H](O)[C@@H]2O)cc1/C=C/Br", "measure": "inhibition", "species": "Varicella zoster virus", "strain": "Kawaguchi", "cell line": "HELF", "read by": "plaque count", "dose": "0.0001 µg/mL", "result": "33%"}
{"compound": "O=S(=O)(O)c1cc(O)c2c(O)cc(S(=O)(=O)O)cc2c1", "measure": "inhibition", "species": "Adenovirus", "strain": "TYPE 3", "cell line": "Human embryonic lung cells", "read by": "cytopathic effect", "dose": "50 µg/mL", "result": "40%"}
{"compound": "C=Cc1cn([C@@H]2O[C@H](CO)[C@@H](O)[C@@H]2O)c(=O)[nH]c1=O", "measure": "inhibition", "species": "Varicella zoster virus", "strain": "OKA", "cell line": "HELF", "read by": "plaque count", "dose": "0.1 µg/mL", "result": "18%"}
{"compound": "Cc1cc(-c2ccc(N=Nc3ccc4c(S(=O)(=O)O)cc(S(=O)(=O)O)c(N)c4c3O)c(C)c2)ccc1N=Nc1ccc2c(S(=O)(=O)O)cc(S(=O)(=O)O)c(N)c2c1O", "measure": "inhibition", "species": "Herpes simplex virus", "cell line": "Human amnion AV3 cells", "read by": "cytopathic effect", "dose": "10 µg/mL", "result": "80%"}
{"compound": "Oc1ccccc1N=Cc1ccc(F)cc1", "measure": "MIC99", "species": "Cryptococcus gattii", "strain": "196L/03", "result": "4 µg/mL"}

2 of the rows above, restated:

compound	measure	species	strain	cell line	read by	dose	result
O=C(Nc1cc(S(=O)(=O)O)cc2cc(S(=O)(=O)O)cc(O)c12)c1ccccc1	inhibition	Adenovirus	TYPE 3	Human amnion AV3 cells	cytopathic effect	10 µg/mL	0%
CCOC(=O)c1c(C)nc(NCCCCNc2ccnc3cc(Cl)ccc23)nc1-c1ccc(F)cc1	MIC99	Cryptococcus gattii	ATCC 32608	-	-	-	16 µg/mL

A number after MIC or MFC names an inhibition level or a share of isolates. Lines come from different laboratories, so protocols vary. An empty or dashed field is not shown. ECn is the concentration giving n% inhibition of infection, replication or growth.